{"source": "PubChem BioAssay AID504761 (Drosophila RNAi Screening Center, 2011)", "test": "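Fly genes whose silencing reduces dengue virus type 2 infection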 (primary screen)", "system": "D.Mel-2 cells from Drosophila", "reagents": "long dsRNA against Drosophila genes", "conditions": "infection with dengue virus type 2; dose and infection time not stated", "read-out": "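Per well on two replicate plates, imaging gave the percent of cells positive for viral envelope protein, ranked by infection, and a nuclear count of cells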", "reading the numbers": "infection score: higher = more virus-infected cells", "hit rule": "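Low infection ranks in the two replicates (chance level up to 0.065) followed by a retest with a 1.5-fold or larger significant decrease, p below 0.05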", "calls": "active = confirmed: knock-down lowers infection; inactive = not picked or not confirmed", "note": "The deposit covers about 22,000 reagents; below is a random part of those with a known target gene and a result. In the full data, 116 (0.52%) got an active call. 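Calls depend on retest data that are not deposited; infection was ranked per plate without normalising between plates; the unit of the infection score is not given.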 Unmarked entries are inactive. Reagents against one gene are numbered here. Not all columns of the deposit are shown. Not stated in the record: the amount of reagent, the time to read-out."}
{"Gene":"glob3 (GeneID 40726)","dsRNA no.":1,"infection score, replicate 1":"1.13 (active)"}
{"Gene":"CG5104 (GeneID 40280)","dsRNA no.":1,"infection score, replicate 1":5.56}
{"Gene":"CG11044 (GeneID 37281)","dsRNA no.":1,"infection score, replicate 1":3.69}
{"Gene":"CG11044 (GeneID 37281)","dsRNA no.":2,"infection score, replicate 1":3.38}
{"Gene":"CG10911 (GeneID 37058)","dsRNA no.":1,"infection score, replicate 1":7.66}
{"Gene":"CG31441 (GeneID 326139)","dsRNA no.":1,"infection score, replicate 1":2.41}
{"Gene":"CG31441 (GeneID 326139)","dsRNA no.":2,"infection score, replicate 1":13.4}
{"Gene":"CG13026 (GeneID 39868)","dsRNA no.":1,"infection score, replicate 1":6.08}
{"Gene":"fd19B (GeneID 33010)","dsRNA no.":1,"infection score, replicate 1":1}
{"Gene":"fd19B (GeneID 33010)","dsRNA no.":2,"infection score, replicate 1":6.35}
{"Gene":"AgmNAT (GeneID 31512)","dsRNA no.":1,"infection score, replicate 1":0.75}
{"Gene":"LS2 (GeneID 37681)","dsRNA no.":1,"infection score, replicate 1":18.7}
{"Gene":"CG11807 (GeneID 36683)","dsRNA no.":1,"infection score, replicate 1":2.95}
{"Gene":"Hmx (GeneID 42110)","dsRNA no.":1,"infection score, replicate 1":3.38}
{"Gene":"Hmx (GeneID 42110)","dsRNA no.":2,"infection score, replicate 1":3.75}

Called active, of those listed so far:
{"Gene":"glob3 (GeneID 40726)","dsRNA no.":1,"infection score, replicate 1":"1.13 (active)"}
